Pooled drug test results. Numbers come from NIAID ChemDB, via PubChem.

Shared fields: cytotoxicity tests; cell line: C8166; read-out: CC50

Neighbouring rows are from separate reports. Blank or dashed fields: not listed here. CCn is the concentration with n% toxicity to the cells.

structure | read by | value
CCc1cc(-c2ccc(C)o2)n(-c2ccc3c(c2)nc(-c2ccc(C(N)=O)cc2)n3Cc2ccc(OC)nc2)n1 | MTT | 13 µM
CCC(C)[C@H](NC(=O)[C@@H]1CCCN1[P@@](=O)(OC)[C@@H](Cc1ccccc1)NC(=O)[C@H](CC(N)=O)NC(=O)OC(C)(C)C)C(=O)NCC(C)C |  | 80 µM
Cc1ccc(S(=O)(=O)c2c(C(=O)NCCO)[nH]c3ccc(Cl)cc23)cc1 | MTT | >100 µM
CC[C@H](C)[C@H](NC(=O)[C@H](Cc1ccccc1)NP(=O)(OC)C(Cc1ccccc1)NC(=O)OCc1ccccc1)C(=O)NCC(C)C |  | 1 µM
Clc1ccccc1OCc1ccccc1 | MTT | 109 µg/mL
C/C(=N\NC(=O)c1ccccc1)c1cn(S(=O)(=O)c2cccc([N+](=O)[O-])c2)c2ccccc12 | MTT | >200 µg/mL
CCc1cc(-c2ccc(C(F)(F)F)o2)n(-c2ccc3c(c2)nc(-c2cc(C(=O)N4CCCC4)ccc2O)n3Cc2ccc(=O)[nH]c2)n1 | MTT | 20 µM
Cc1ccc(Sc2c(C(=O)NCCO)[nH]c3ccc(Cl)cc23)c(C)c1 | MTT | >100 µM
O=c1nc(-n2cncn2)ccn1[C@H]1C[C@H](O)[C@@H](CO)O1 |  | >1000 µM
O=C(c1cc2c([nH]c3ccccc32)c(-c2cccs2)n1)N1CCC(c2cccc(Cl)c2)CC1 | MTT | >400 µM
C=C(C)C1Cc2cc3ccc(=O)oc3cc2O1 | MTT | 636.1 µM
CCC(=O)c1cn(S(=O)(=O)c2ccc(OC)cc2)c2cc(C)ccc12 | MTT | 80.1 µg/mL
COc1cc([C@H]2OC[C@H]3[C@@H]2CO[C@@H]3c2ccc(O)c(OC)c2)ccc1O | MTT | >200 µg/mL
CC1=C[C@@H]([C@H]2O[C@@H]3Cc4c(ccc5c4C=C[C@H]4C(C)(C)O[C@@H]6CC(=O)O[C@@]64C5)[C@@H]3[C@@H]2C)OC1=O | MTT | 120.7 µg/mL
CC(C)(C)c1ccc(OCc2ccccc2)cc1 | MTT | 118 µg/mL
CCC(=O)c1cn(S(=O)(=O)c2ccc(Cl)cc2)c2ccccc12 | MTT | >200 µg/mL
CN1CCN(c2c(F)cc3c(=O)c(C(=O)O)cn4c3c2SCC4)CC1 |  | 500 µM
c1ccc(COc2ccccc2)cc1 | MTT | 198 µg/mL
O=c1nc(Oc2c(F)c(F)c(F)c(F)c2F)ccn1[C@H]1C[C@H](O)[C@@H](CO)O1 |  | >1000 µM
Clc1ccc(OCc2ccccc2)cc1 | MTT | 106 µg/mL
CCCC(=O)O[C@@]12[C@H](OC(=O)/C=C/c3ccccc3)[C@@H](C)[C@@]3(O)[C@@H](C=C(COC(=O)/C=C/c4ccc5c(c4)OCO5)C[C@]4(O)C(=O)C(C)=C[C@@H]34)[C@@H]1C2(C)C | MTT | >200 µM
CCCCOP(=O)(OCCCC)OC[C@H]1O[C@@H](n2cc(C)c(=O)[nH]c2=O)C[C@@H]1OC(C)=O |  | >100 µM
CC1=C[C@H]2[C@@]3(O)[C@H](C)[C@@H](O)[C@]4(OC(=O)CCCCCN5CCN(C(=O)CC6(C)C(O)CCC7(C)C8CCC(=O)C8(C)CCC67)CC5)[C@H]([C@@H]3C=C(CO)C[C@]2(O)C1=O)C4(C)C | MTT | 16.4 µM
CCOC1c2c(cc(O)c3c(=O)cc(-c4ccc(O)cc4)oc23)OC(C)(C)C1O | MTT | 149.5 µM
CC(=O)O[C@@]12[C@H](OC(=O)/C=C/c3ccccc3)[C@@H](C)[C@@]3(O)[C@@H](C=C(CO)C[C@]4(O)C(=O)C(C)=C[C@@H]34)[C@@H]1C2(C)C | MTT | 75.1 µM
CC(=O)OC[C@H]1O[C@@H](n2cc(C)c(-n3cncn3)nc2=O)C[C@@H]1OC(C)=O |  | 80 µM
C/C(=N\NC(=O)c1ccccc1)c1cn(S(=O)(=O)c2ccc(Cl)cc2)c2ccccc12 | MTT | >200 µg/mL
Cc1cc(C)cc(S(=O)(=O)c2c(C(=O)/C=C/C(N)=O)[nH]c3ccc(Cl)cc23)c1 | MTT | >200 µM
O=C(c1cc2c([nH]c3ccccc32)c(-c2cccs2)n1)N1CCC(c2ccncc2)CC1 | MTT | >400 µM
NCCCC[C@H](NC(=O)OCc1ccccc1)C(=O)NCCCCCC(=O)N[C@@H](CCCCN)C(=O)OCc1ccccc1 | XTT | 200 µM
C/C(=N\NC(=O)c1ccccc1)c1cn(S(=O)(=O)c2ccc(Cl)cc2)c2cc(C)ccc12 | MTT | 96.71 µg/mL
CCc1cc(-c2ccc(C)o2)n(-c2ccc3c(c2)nc(-c2ccc(C(N)=O)cc2)n3Cc2ccc(OC)c(O)c2)n1 | MTT | 12 µM
O=[N+]([O-])c1ccc(OCc2ccccc2)cc1 | MTT | 183 µg/mL
O=C(NCCO)c1[nH]c2ccc(Cl)cc2c1Sc1ccccc1 | MTT | >100 µM
NCCCC[C@H](NC(=O)OCc1ccccc1)C(=O)OCc1ccccc1 | XTT | 200 µM
Cc1ccc(Sc2c(C(=O)NNCCO)[nH]c3ccc(Cl)cc23)c(C)c1 | MTT | >100 µM
CC(=O)OC[C@H]1O[C@@H](n2ccc(Oc3c(F)c(F)c(F)c(F)c3F)nc2=O)C[C@@H]1OC(C)=O |  | 100 µM
CCC(=O)c1cn(S(=O)(=O)c2cccc([N+](=O)[O-])c2)c2ccc(C#N)cc12 | MTT | >200 µg/mL
CCc1cc(-c2ccc(C(F)(F)F)o2)n(-c2ccc3c(c2)nc(-c2cc(C(=O)N4CCCC4)ccc2O)n3Cc2cc(C)c(=O)n(C)c2)n1 | MTT | 21 µM
C/C(=N\NC(=O)c1ccccc1)c1cn(S(=O)(=O)c2cccc([N+](=O)[O-])c2)c2cc(C)ccc12 | MTT | >200 µg/mL
COc1cc(C(CO)C(O)c2cc(OC)c(O)c(OC)c2)ccc1O | MTT | >200 µg/mL
CCOP(=O)(OCC)OC[C@H]1O[C@@H](n2cc(C)c(=O)[nH]c2=O)C[C@@H]1OS(C)(=O)=O |  | >100 µM
C=C(C)[C@]1(O)C[C@@H](C)[C@@]2(O)[C@H]([C@H]1OC(=O)/C=C/C=C/CCCCC)[C@@H]1O[C@]1(CO)[C@@H](O)[C@]1(O)C(=O)C(C)=C[C@H]12 | MTT | 109 µM
NC(=O)c1[nH]c2ccc(Cl)cc2c1S(=O)(=O)c1ccccc1 | MTT | >100 µM
O=C(c1cc2c([nH]c3ccccc32)c(-c2cccs2)n1)N1CCC(c2ccc(F)cc2)CC1 | MTT | >400 µM
COC(=O)CC(O)(CC(=O)O)C(=O)NCCCC[C@H](NC(=O)OCc1ccccc1)C(=O)OCc1ccccc1 | XTT | 250 µM
CC(=O)OCC1=C[C@H]2[C@@H]3C(C)(C)[C@]3(OC(C)=O)[C@H](OC(=O)/C=C/c3ccc4c(c3)OCO4)[C@@H](C)[C@]2(O)[C@@H]2C=C(C)C(=O)[C@@]2(O)C1 | MTT | >200 µM
CCc1cc(-c2ccc(C(F)(F)F)o2)n(-c2ccc3c(c2)nc(-c2cc(C(=O)N4CCCC4)ccc2O)n3Cc2c[nH]c(=O)c(C)c2)n1 | MTT | 18 µM
CCC(=O)c1cn(S(=O)(=O)c2cccc([N+](=O)[O-])c2)c2cc(C)ccc12 | MTT | 101.8 µg/mL
CCCCC/C(=N\NC(=O)c1ccccc1)c1cn(S(=O)(=O)c2ccc(C)cc2)c2ccccc12 | MTT | >200 µg/mL
CC1(C)O[C@H]2CC(=O)OC[C@]23[C@H]2CC[C@@]4(C)[C@H](c5ccoc5)OC(=O)[C@H]5O[C@]54[C@]2(C)C(=O)C[C@@H]13 | MTT | >340.4 µM
Cc1cc(C)cc(Sc2c(C(=O)NNCCO)[nH]c3ccc(Cl)cc23)c1 | MTT | >100 µM
COc1ccc(C(=O)O[C@@H](c2cc(O)c(OC)c(OC)c2)[C@H](C)C(C)O)cc1OC | MTT | 107 µg/mL
COc1cc2c(c(O)c1OC)-c1c(cc3c(c1O)OCO3)C[C@H](C)[C@H](C)C2 | MTT | 34.28 µg/mL
COc1cc2oc3cccc(O)c3c(=O)c2c2c1OC(C)(C)C=C2 | MTT | >493.8 µM
CCOP(=O)(OCC)OC[C@H]1O[C@@H](n2cc(C)c(=O)[nH]c2=O)C[C@@H]1N=[N+]=[N-] |  | >100 µM
C=CC(C)(C)C1C2=C(C=CC(C)(C)O2)C(OC)=C2C=CC(=O)OC21 | MTT | 68.4 µM
CC[C@H](C)[C@H](NC(=O)[C@@H]1CCCN1[P@](=O)(OC)[C@H](Cc1ccccc1)NC(=O)OCc1ccccc1)C(=O)NCC(C)C |  | 25 µM
Cc1ccc(S(=O)(=O)c2c(C(=O)NCCO)[nH]c3ccc(Cl)cc23)c(C)c1 | MTT | >100 µM
CCc1cc(-c2ccc(C)o2)n(-c2ccc3c(c2)nc(-c2ccc(C(N)=O)cc2)n3Cc2ccc(=O)[nH]c2)n1 | MTT | >39 µM
Cc1ccc(S(=O)(=O)n2cc(/C=N/NC(=O)c3ccccc3)c3ccccc32)cc1 | MTT | 89.93 µg/mL
COc1cc([C@H]2OC[C@H]3[C@@H]2CO[C@@H]3c2cc(OC)c(O)c(OC)c2)cc(OC)c1O | MTT | >200 µg/mL
CCCOP(=O)(OCCC)OC[C@H]1O[C@@H](n2cc(C)c(=O)[nH]c2=O)C[C@@H]1OC(C)=O |  | >100 µM
C/C(=N\NC(=O)c1ccccc1)c1cn(S(=O)(=O)c2ccccc2)c2ccc([N+](=O)[O-])cc12 | MTT | 125 µg/mL
O=c1ccn([C@@H]2O[C@H](CO)C[C@@H]2F)c(=O)[nH]1 |  | >100 µM
CC(C)(C)NC(=O)[C@@H]1C[C@@H]2CCCC[C@@H]2CN1C[C@@H](O)[C@H](Cc1ccccc1)NC(=O)[C@@H]1CCCS(=O)(=O)C1 |  | 48 µM
COc1cc(C(OC(=O)c2ccc3c(c2)OCO3)[C@H](C)C(C)O)ccc1O | MTT | 111.3 µg/mL
C/C(=N\NC(=O)c1ccccc1)c1cn(S(=O)(=O)c2ccccc2)c2ccc(C#N)cc12 | MTT | >200 µg/mL
CCC(=O)c1cn(S(=O)(=O)c2ccc(OC)cc2)c2ccccc12 | MTT | 10 µg/mL

6 of the rows above, restated:

| structure | read by | value |
|---|---|---|
| Cc1ccc(Sc2c(C(=O)NNCCO)[nH]c3ccc(Cl)cc23)c(C)c1 | MTT | >100 µM |
| C=CC(C)(C)C1C2=C(C=CC(C)(C)O2)C(OC)=C2C=CC(=O)OC21 | MTT | 68.4 µM |
| O=c1nc(-n2cncn2)ccn1[C@H]1C[C@H](O)[C@@H](CO)O1 |  | >1000 µM |
| CC(=O)O[C@@]12[C@H](OC(=O)/C=C/c3ccccc3)[C@@H](C)[C@@]3(O)[C@@H](C=C(CO)C[C@]4(O)C(=O)C(C)=C[C@@H]34)[C@@H]1C2(C)C | MTT | 75.1 µM |
| CCC(=O)c1cn(S(=O)(=O)c2ccc(Cl)cc2)c2ccccc12 | MTT | >200 µg/mL |
| COc1cc(C(CO)C(O)c2cc(OC)c(O)c(OC)c2)ccc1O | MTT | >200 µg/mL |